Entries after “also recorded” stand apart in the source; their conditions may differ.
What was measured:
Langmuir monolayer study [1] = assay type: physicochemical; details: for maximum insertion pressure (MIP): DOPG monolayers, x-intercept extrapolated; for maximum surface pressure increase: pure DOPG
Langmuir monolayer study [2] = assay type: physicochemical; details: neutral DOPC monolayers
[3] = Isothermal titration calorimetry; assay type: binding; details: neutral DOPC LUVs titrated into 25 μM amphiphile
[4] = Isothermal titration calorimetry; assay type: binding; details: anionic DOPC:DOPG LUVs titrated into 25 μM amphiphile
Langmuir monolayer study [5] = assay type: physicochemical; details: for maximum surface pressure increase: DOPC:DOPG; for maximum insertion pressure (MIP): DOPC:DOPG monolayers, x-intercept extrapolated

| SMILES | maximum insertion pressure (MIP) (Langmuir monolayer study [1]) | maximum surface pressure increase (Langmuir monolayer study [1]) | incorporation into lipid monolayer (Langmuir monolayer study [2]) | interactions with LUVs (heat signals) [3] | enthalpy change of binding [4] | maximum surface pressure increase (Langmuir monolayer study [5]) | maximum insertion pressure (MIP) (Langmuir monolayer study [5]) |
| --- | --- | --- | --- | --- | --- | --- | --- |
| CCCCCCCCC(=O)OC(C(=O)NCCN)C(OC(=O)CCCCCCCC)C(=O)NCCN.Cl.Cl (centres unmarked) [Amphiphile G7] | 46 mN/m | 24 mN/m | no significant incorporation | no interactions; also recorded: negligible | negative | 12 mN/m | 52 mN/m |
| CCCNC(=O)[C@H](OC(=O)CCCCCCCCCCCN)[C@@H](OC(=O)CCCCCCCCCCCN)C(=O)NCCC.Cl.Cl [Amphiphile B11] | 40 mN/m | 20 mN/m | no significant incorporation | no interactions; also recorded: negligible | positive | 15 mN/m | 42 mN/m |

Reference: patent publication US10556856B2, “Antibacterial agents” (Rutgers, The State University of New Jersey, priority 2014, dated 2020)
